Measurements taken from ChEMBL document CHEMBL1137017, “In vitro antiviral activity and cross-resistance profile of PL-100, a novel protease inhibitor of human immunodeficiency virus type 1” (Antimicrob Agents Chemother, 2007).

What follows are compounds tested against Protease (Human immunodeficiency virus 1, UniProt Q9YQ12) (assay: Inhibition of HIV1 protease).

**Q.** For `CC(C)(C)NC(=O)[C@@H]1C[C@@H]2CCCC[C@@H]2CN1C[C@@H](O)[C@H](Cc1ccccc1)NC(=O)[C@H](CC(N)=O)NC(=O)c1ccc2ccccc2n1`, which Ki is on record?
**A.** 0.08 nM

**Q.** For `CC(C)(C)NC(=O)[C@@H]1CN(Cc2cccnc2)CCN1C[C@@H](O)C[C@@H](Cc1ccccc1)C(=O)N[C@H]1c2ccccc2C[C@H]1O`, which Ki is on record?
**A.** 1.95 nM

**Q.** How did the Ki turn out when `Cc1cccc(C)c1OCC(=O)N[C@@H](Cc1ccccc1)[C@@H](O)C[C@H](Cc1ccccc1)NC(=O)[C@H](C(C)C)N1CCCNC1=O` [LOPINAVIR] was run?
**A.** 0.014 nM
